Read-outs that look alike come from different tables or passages of the source.
Legend:
[1] = molecular target: T1, SARS-CoV RBD (aa 319-591; Urbani variant), 8xHis-tagged (SARS-CoV Urbani, UniProt P59594); settings: both partners purified
[2] = molecular target: SARS-CoV-2 Spike (Wu-Hu-1 + D614G) expressed on the 293T cell surface (SARS-CoV-2 Wuhan-Hu-1 + D614G, UniProt A0A6H1PJZ3, D614G); settings: one partner purified
[3] = molecular target: full-length SARS-CoV Spike (Urbani variant) expressed on the 293T cell surface (SARS-CoV Urbani, UniProt P59594); settings: one partner purified
[4] = molecular target: T1, SARS-CoV RBD (aa 319-591; Urbani …); experiment: flow cytometry on cells; settings: one partner purified

Binder | Kd [1] [nM] | binding result [2] | EC50 [3] [nM] | Kd [4] [nM]
purified His-tagged B9-scFv (scFv) VH: QVQLRESGPSLVKPSQTLSLTCTASGFSLSDKAVGWVRQAPGKALEWLGGIDTGGSTGYNPGLKSRLSITKDNSKSQISLSVSSVTTEDSATYYCTTVHQRDSCPYDSSHSQYCSYGWSCGVYNCRPAVWYRYGSCGTCDNLFSYVDAWGQGLLVTVSS VL: QAVLNQPSSVSGSLGQRVSITCSGSSSNVGNGYVSWYQLIPGSAPRTLIYGDTSRASGVPDRFSGSRSGNTATLTISSLQAEDEADYFCASAEDSSSNAVFGSRTTLTVL | 169 ± 22 | binds | 599 | –
B9-scFv displayed on the 293T cell surface (pBovShow) (scFv) VH: QVQLRESGPSLVKPSQTLSLTCTASGFSLSDKAVGWVRQAPGKALEWLGGIDTGGSTGYNPGLKSRLSITKDNSKSQISLSVSSVTTEDSATYYCTTVHQRDSCPYDSSHSQYCSYGWSCGVYNCRPAVWYRYGSCGTCDNLFSYVDAWGQGLLVTVSS VL: QAVLNQPSSVSGSLGQRVSITCSGSSSNVGNGYVSWYQLIPGSAPRTLIYGDTSRASGVPDRFSGSRSGNTATLTISSLQAEDEADYFCASAEDSSSNAVFGSRTTLTVL | – | – | – | ~181

From publication PMC9678781 (The Journal of Biological Chemistry, 2022)
